Assay results taken from patent US20110033498.

Experiments:
[1] = molecular target: K48-linked poly-ubiquitin chains Ub2-7 (UniProt P0CG47)
[2] = molecular target: K63-linked poly-ubiquitin chains (UniProt P0CG47)

A20 catalytic domain (A20CD)
in vitro hydrolysis of K48-linked Ub chains, Coomassie staining [1]: even though it cleaved K48-linked Ub chains (FIG. 12F, lane 4)

USP5/Isopeptidase T
in vitro deconjugation assay, SDS-PAGE and Coomassie-type staining [1]: similarly to isopeptidase T, a known DUB enzyme (FIG. 12B, lane 10) | in vitro deconjugation assay, SDS-PAGE and Coomassie-type staining [2]: similarly to isopeptidase T, a known DUB enzyme (FIG. 12B, lane 10)
